The source of these data is patent US20100129432A1, “MICROORGANISM-KILLING COMBINATION” (TAIPEI MEDICAL UNIVERSITY, priority 2008, published 2010).

The test system of this experiment is Candida albicans. In words: Toluidine blue or Methylene Blue mediated PDI with or without 0.6% chitosan, survival fraction.

The structures appear in SMILES notation.

In the case of `CN(C)c1ccc2nc3ccc(=[N+](C)C)cc-3sc2c1` [MB, methylene blue], the “PDI effect (survival fraction)” value (0.5 mM MB, 630±5 nm 50 J/cm^2, 0.6% (w/v) chitosan 90 minutes after the PDI) is given as “complete eradiation”.

In the case of `Cc1cc2nc3ccc(N(C)C)cc3[s+]c2cc1N.[Cl-]` [TB, toluidine blue], where the note is “0.5 mM TB, 630±5 nm 50 J/cm^2, 0.6% (w/v) chitosan 30 minutes after the PDI”, the “PDI effect (survival fraction)” value is “complete eradiation”.
